A mixed list of measured activities; the numbers were collected in NIAID ChemDB.

Shared fields: growth or infection tests; species: Hepatitis C virus; read by: replicon; measure: EC50

An empty or dashed field is not shown.

CCNc1cc2oc(-c3ccc(F)cc3)c(C(=O)NC)c2cc1OCCCOCC ; cells: Huh7 ; result: <1 µM
CCOc1nc(NCc2ccc(F)cc2)nc2ccc(-c3ccc(F)c(S(N)(=O)=O)c3)nc12 ; result: <0.1 µM
CN1CCN(c2cc3c(cc2F)c(=O)c(-c2noc(Cc4ccc(F)cc4)n2)cn3Cc2c(F)cccc2F)CC1 ; strain or isolate: 1b ; result: >10 µM
COC(=O)c1ccccc1-c1cc(-c2cccc(NC(=O)C(Cl)Cl)c2)on1 ; result: ≤10 µM
CNC(=O)c1c(-c2ccc(F)cc2)oc2cc(N3CCOCC3)c(OCc3ccc(F)cc3)cc12 ; cells: Huh7 ; result: <1 µM
Cc1ccc(/C(N)=N/OC(=O)N2CCOCC2)cc1 ; cells: Huh7 ; result: 1.55 µM
Cc1ncnc2c1ncn2[C@@H]1O[C@H](CO)C[C@H]1O ; result: >10 µM
O=C(Nc1cccc(-c2cc(-c3c(Cl)cccc3Cl)on2)c1)C(Cl)Cl ; result: ≤10 µM
COCCOC(=O)NC(=S)Nc1ccc(Oc2ccc(Cl)cc2)c(Cl)c1 ; cells: Huh7 ; result: 0.94 µM
O=c1c(-c2noc(Cc3ccccc3)n2)cn(Cc2ccc(C(F)(F)F)cc2)c2cc(N3CCNCC3)c(F)cc12 ; strain or isolate: 1b ; result: <0.5 µM
O=C(O)/C=C/c1ccc(NC(=O)C2(NC(=O)c3ccc4c(c3)nc(-c3ccoc3)n4C3CCCCC3)CCC2)cc1 ; strain or isolate: 1b FC ; result: 1.4 µM
N/C(=N\OC(=O)N1CCOCC1)c1ccc([N+](=O)[O-])cc1 ; cells: Huh7 ; result: 2.61 µM
CCNc1cc2oc(-c3ccc(F)cc3)c(C(=O)NC)c2c(Cl)c1OC ; cells: Huh7 ; result: <1 µM
Nc1nc(O[C@@H]2CCOC2)c2nc(-c3ccc(NC(=O)[C@H]4CCNC4)cc3)ccc2n1 ; cells: Huh7 ; result: >1 µM
N/C(=N\OC(=O)N1CCOCC1)c1ccc(O)cc1 ; cells: Huh7 ; result: 4.03 µM
CNC(=O)c1c(-c2ccc(F)cc2)oc2cc(NCc3ccoc3)c(OC(C)C)cc12 ; cells: Huh7 ; result: <1 µM
CN1CCN(c2cccc(Cl)c2-c2cc(-c3cccc(NC(=O)C(Cl)Cl)c3)on2)CC1 ; result: ≤10 µM
CN1CCN(c2cc3c(cc2F)c(=O)c(-c2noc(C(C)(C)c4ccccc4)n2)cn3C2(c3ccc(C(F)(F)F)cc3)CC2)CC1 ; strain or isolate: 1b ; result: >10 µM
O=C(Nc1cccc(-c2cc(-c3c(Cl)cccc3C3CCCCC3)no2)c1)C(Cl)Cl ; result: ≤10 µM
O=C(O)c1ccc2c(C3CCCCC3)c3n(c2c1)CCN(CCN1CCCCC1)c1ccccc1-3 ; cells: Huh7 ; setting: 10% FBS ; result: 0.035 µM
COC(=O)c1ccc(Cl)c(-c2cc(-c3cccc(NC(=O)C(Cl)Cl)c3)on2)c1Cl ; result: >10 µM
OC[C@@H]1C[C@@H](O)[C@H](n2cnc3c(-c4ccco4)ncnc32)O1 ; result: >10 µM
N/C(=N\OC(=O)N1CCOCC1)c1cccc(C(F)(F)F)c1 ; cells: Huh7 ; result: 1.99 µM
CC(C)Nc1nc(Nc2ccccc2)nc2ccc(-c3ccc(F)cc3)nc12 ; result: 0.25–2 µM
O=C(O)c1ccc(Cl)c(-c2cc(-c3cccc(NC(=O)C(Cl)Cl)c3)on2)c1Cl ; result: >10 µM
O=C1CN(c2cc3c(cc2F)c(=O)c(-c2noc(Cc4ccc(F)cc4)n2)cn3Cc2ccc(C(F)(F)F)cc2F)CCN1 ; strain or isolate: 1b ; result: <0.5 µM
CCOc1nc(NCc2ccc(Cl)cc2F)nc2ccc(-c3ccc(F)cc3)nc12 ; result: <0.1 µM
C[C@@H]1CN(c2cc3c(cc2F)c(=O)c(-c2noc(C(C)(C)c4ccccc4)n2)cn3Cc2ccc(C(F)(F)F)cc2)C[C@H](C)N1 ; strain or isolate: 1b ; result: <0.5 µM
COc1ccc(-c2cc(-c3c(Cl)cccc3Cl)no2)cc1NC(=O)C(Cl)Cl ; result: ≤10 µM
N/C(=N\OC(=O)N1CCOCC1)c1ccccc1 ; cells: Huh7 ; result: 8.62 µM
CCOc1nc(NCc2ccc(F)cc2)nc2ccc(-c3ccc(N4CC(O)CC4=O)cc3)nc12 ; result: <0.1 µM
CNC(=O)c1c(-c2ccc(F)cc2)oc2cc(Cl)c(OC)cc12 ; cells: Huh7 ; result: <1 µM
COC(=O)N[C@H](C(=O)N1CC2(CC2)C[C@H]1c1ncc(-c2ccc3c(c2)C(F)(F)c2cc(-c4ccc5nc([C@@H]6[C@H]7CC[C@H](C7)N6C(=O)[C@@H](NC(=O)OC)C(C)C)[nH]c5c4)ccc2-3)[nH]1)C(C)C ; cells: HCV replicon ; strain or isolate: Genotype 4a ; result: 0.00011 µM
CCOc1nc(NCc2ccc(NS(C)(=O)=O)cc2)nc2ccc(-c3ccc(F)cc3)nc12 ; result: <0.1 µM
OC[C@@H]1C[C@@H](O)[C@H](n2cnc3c(COCc4ccccc4)ncnc32)O1 ; result: >10 µM
CS(=O)(=O)CCNc1nc(NCc2ccc(F)cc2)nc2ccc(-c3cnc(N)s3)nc12 ; result: <0.1 µM
CNC(=O)c1c(-c2ccc(F)cc2)oc2cc(NCC(O)CO)c(OC(C)C)cc12 ; cells: Huh7 ; result: <10 µM
CN1CCN(c2cc3c(cc2F)c(=O)c(-c2noc(Cc4ccccc4)n2)cn3CCc2ccccc2)CC1 ; strain or isolate: 1b ; result: <2 µM
Fc1ccc(-c2ccc3nc(NCc4ccc(N5CCCC5)cc4)nc(NCC(F)(F)F)c3n2)cc1 ; result: <0.1 µM
O=C(O)c1ccc2c(C3CCCCC3)c3n(c2c1)CCNc1ccccc1-3 ; cells: Huh7 ; setting: 10% FBS ; result: 0.57 µM
CN1CCN(c2cc3c(cc2F)c(=O)c(-c2noc(Cc4ccc(F)cc4)n2)cn3Cc2c(F)cccc2Cl)CC1 ; strain or isolate: 1b ; result: >10 µM
CCNC(=O)c1c(-c2ccc(F)cc2)oc2cc(NS(C)(=O)=O)c(OC(C)C)cc12 ; cells: Huh7 ; result: <1 µM
CC(C)CNC(=O)c1ccc(-c2ccc3nc(N)nc(OC(C)C)c3n2)cc1 ; cells: Huh7 ; result: 0.3–1 µM
CN1CCN(c2cc3c(cc2F)c(=O)c(-c2noc(Cc4ccccc4CC(=O)O)n2)cn3Cc2ccc(Cl)cc2)CC1 ; strain or isolate: 1b ; result: <2 µM

A second listing of 3 rows from above:

SMILES	cells	strain or isolate	setting	result
COC(=O)c1ccc(Cl)c(-c2cc(-c3cccc(NC(=O)C(Cl)Cl)c3)on2)c1Cl				>10 µM
CCOc1nc(NCc2ccc(F)cc2)nc2ccc(-c3ccc(N4CC(O)CC4=O)cc3)nc12				<0.1 µM
CNC(=O)c1c(-c2ccc(F)cc2)oc2cc(Cl)c(OC)cc12	Huh7			<1 µM

Conditions beyond the fields shown may differ between rows. Two numbers with a dash give a range or band. ECn: concentration that inhibits the pathogen or its effect by n%.